This note sets out measurements from patent US11096923B2, “Pharmaceutical composition containing polymyxin B/trimethoprim based therapeutics” (University of Rochester, priority 2016, dated 2021).

The subject of the experiment is P. aeruginosa strain PA01. In kind it is cell-based, Pseudomonas aeruginosa. The conditions noted are these: after 40 hours at 1×MIC, 8 colonies. As for the experimental part:
Spontaneous resistance to the indicated test agent(s) was measured for P. aeruginosa strain PA01 and S. aureus strain UAMS-1 using two liquid culture approaches. […] Growth was measured using the BacterioScan s216Dx laser microbial growth monitor, with optical measurements taken every 3 minutes over 40 hours. Following 40 hours, samples were plated for to measure viable colony forming units and re-tested for drug susceptibility.
To determine if these colonies represented untreated cells vs. resistant cells, 8 individual colonies from each treatment condition were randomly selected and tested for MICs.
Using an automated laser microbial growth monitor, the optical profiles of these cultures were measured continuously over time. […] Again 8 colonies were selected at random from each treatment group.

Each structure is given as a SMILES string.

On to `CO[C@H]1/C=C/O[C@@]2(C)Oc3c(C)c(O)c4c(O)c(c(/C=N/N5CCN(C)CC5)c(O)c4c3C2=O)NC(=O)/C(C)=C\C=C\[C@H](C)[C@H](O)[C@@H](C)[C@@H](O)[C@@H](C)[C@H](OC(C)=O)[C@@H]1C` [Rifampicin, rifampicin], for which the “resistance of recovered cells on MIC retest” value was 2-8 ×MIC.
